# Experiments:
# Type in all cases: cell-based
# [1] = test system: Leishmania major promastigotes; test: Leishmania major promastigote viability, MTT assay; conditions: selectivity index (IC50 Vero from Table 1/EC50 promastigotes)
# [2] = test system: Toxoplasma gondii; test: Toxoplasma gondii tachyzoite (RH strain) growth in infected Vero cells, infection index; conditions: selectivity index (IC50/EC50)
# Description: Serial passages of cells of the Vero cell line (ATCC® CCL81™, Manassas, VA, USA) were applied for the cultivation of T. gondii tachyzoites of the RH strain (a gift from Dr. Saeed El-Ashram, State Key Laboratory for Agrobiotechnology, China Agricultural University, Beijing, China). Vero cells were cultured by using complete RPMI 1640 medium with heat-inactivated 10% FBS in a humidified 5% CO2 atmosphere, at 37 °C. The 96-well plates (5 × 10^3 cells/well in 200 µL RPMI 1640 medium) were used for the cultivation of the Vero cells and then incubated, at 37 °C, and 5% CO2 for one day, followed by removal of medium and washing the cells with PBS. Then, RPMI 1640 medium containing 2% FBS and T. gondii tachyzoites (RH strain) was given to the cells at a ratio of 5 (parasite):1 (Vero cells). After incubation, at 37 °C, and 5% CO2 for 5 h, cells were washed with PBS and then treated as described below.
# Control: RPMI 1640 medium containing DMSO (1%)
# Experimental: Medium + compounds (dissolved in DMSO) (50, 25, 12.5, 6.25, 3.13, 1.65, and 0.75 µg mL^−1).
# After incubation, at 37 °C, and 5% CO2 for 72 h, the cells were washed with PBS, fixed in 10% formalin and stained with 1% toluidine blue. Examination of the cells and determination of the infection index (number of cells infected from 200 cells tested) of T. gondii were carried out with an inverted photomicroscope. The following equation was used for the calculation of the inhibition in %:Inhibition (%) = (I Control − I Experimental)/(I Control) × 100 where “I Control” refers to the infection index of untreated cells and “I Experimental” refers to the infection index of cells treated with test compounds.
# Then, effects of test compounds on parasite growth were expressed as EC50 (effective concentration at 50%) values. EC50 values were obtained from three independent experiments.
# [3] = test system: Leishmania major amastigotes; test: Leishmania major amastigotes in peritoneal macrophages, percentage of infected macrophages (Giemsa); conditions: selectivity index (IC50 Vero from Table 1/EC50 amastigotes)
SMILES,SI Vero/Promastigotes [1],SI (Vero/T. gondii) [2],SI Vero/Amastigotes [3]
"N#CC1=C(n2cccc2)n2c(nc3ccccc32)NC1c1cc(F)cc(F)c1 (stereo not drawn) [Compound 4b, 4-Pyrrolo-2-(3,5-difluorophenyl)-1,2-dihydropyrimido[1,2-a]benzimidazole-3-carbonitrile]",1.12,1.78,0.70
"COc1cc(C2Nc3nc4ccccc4n3C(N)=C2C#N)cc(Br)c1OC (stereo not drawn) [Compound 2e, 4-Amino-2-(3-bromo-4,5-dimethoxyphenyl)-1,2-dihydropyrimido[1,2-a]benzimidazole-3-carbonitrile]",0.73,2.00,0.76
"O=C1C(O)=C([C@H]2CC[C@H](c3ccc(Cl)cc3)CC2)C(=O)c2ccccc21 [ATO, atovaquone, reference compound]",–,136,–
"N#CC1=C(N)n2c(nc3ccccc32)NC1c1cccc(F)c1 (stereo not drawn) [Compound 2a, 4-Amino-2-(3-fluorophenyl)-1,2-dihydropyrimido[1,2-a]benzimidazole-3-carbonitrile]",11.1,0.94,21.6
"N#CC1=C(N)n2c(nc3ccccc32)NC1c1cc(F)cc(F)c1 (stereo not drawn) [Compound 2b, 4-Amino-2-(3,5-difluorophenyl)-1,2-dihydropyrimido[1,2-a]benzimidazole-3-carbonitrile]",0.31,0.76,1.45
"N#CC1=C(n2cccc2)n2c(nc3ccccc32)NC1c1ccccc1F (stereo not drawn) [Compound 4c, 4-Pyrrolo-2-(2-fluorophenyl)-1,2-dihydropyrimido[1,2-a]benzimidazole-3-carbonitrile]",1.55,0.95,0.48
N#CC1=C(N)n2c(nc3ccccc32)NC1c1ccc(F)cc1 (stereo not drawn) [Compound 2d],1.87,0.97,1.00
"N#Cc1c(-c2cc(F)cc(F)c2)nc2nc3ccccc3n2c1N [Compound 3b, 4-Amino-2-(3,5-difluorophenyl)pyrimido[1,2-a]benzimidazole-3-carbonitrile]",1.66,8.12,0.78
N#Cc1c(-c2ccc(F)cc2)nc2nc3ccccc3n2c1N [Compound 3d],1.18,1.04,1.67
N#CC1=C(N)n2c(nc3ccccc32)NC1c1ccccc1F (stereo not drawn) [Compound 2c],0.37,0.68,0.74
"N#CC1=C(n2cccc2)n2c(nc3ccccc32)NC1c1ccc(F)cc1 (stereo not drawn) [Compound 4d, 4-Pyrrolo-2-(4-fluorophenyl)-1,2-dihydropyrimido[1,2-a]benzimidazole-3-carbonitrile]",1.29,1.19,0.80
"C[C@@H]1[C@H](O)[C@@H](C)/C=C/C=C/C=C/C=C/C=C/C=C/C=C/[C@H](O[C@@H]2O[C@H](C)[C@@H](O)[C@H](N)[C@@H]2O)C[C@@H]2O[C@](O)(C[C@@H](O)C[C@@H](O)[C@H](O)CC[C@@H](O)C[C@@H](O)CC(=O)O[C@H]1C)C[C@H](O)[C@H]2C(=O)O [AmB, Amphotericin B, reference compound]",9.6,–,16.4
"N#CC1=C(n2cccc2)n2c(nc3ccccc32)NC1c1cccc(F)c1 (stereo not drawn) [Compound 4a, 4-Pyrrolo-2-(3-fluorophenyl)-1,2-dihydropyrimido[1,2-a]benzimidazole-3-carbonitrile]",1.72,1.05,0.69
"N#Cc1c(-c2ccccc2F)nc2nc3ccccc3n2c1N [Compound 3c, 4-Amino-2-(2-fluorophenyl)pyrimido[1,2-a]benzimidazole-3-carbonitrile]",0.80,1.24,0.95
"N#Cc1c(-c2cccc(F)c2)nc2nc3ccccc3n2c1N [Compound 3a, 4-Amino-2-(3-fluorophenyl)pyrimido[1,2-a]benzimidazole-3-carbonitrile]",1.08,1.07,1.37
